Assay results from US20230250157A1.

Assays:
SARS-CoV RBD (SARS-CoV) = SARS-CoV RBD (SARS-CoV) (UniProt P59594); assay: ELISA
WIV1 RBD = WIV1 RBD (UniProt P59594); assay: ELISA

Substance	EC50 (SARS-CoV RBD (SARS-CoV)) [µg/mL]	EC50 (WIV1 RBD) [µg/mL]
C102 IgG	> 10	> 10
C144 IgG	> 10	> 10
